pEC50: −log10 of the molar value.

The record followed here is ChEMBL document CHEMBL4834412, “2,4,5-Trisubstituted Pyrimidines as Potent HIV-1 NNRTIs: Rational Design, Synthesis, Activity Evaluation, and Crystallographic Studies” (J Med Chem, 2021).

The subject of one data set is MT4. The experiment in a line: Cytotoxicity in mock-infected human MT4 assessed as reduction in cell viability incubated for 5 days by MTT assay. Format: ADME, cell-based. Particulars: mt4, 120 h, time 5 day. On the technique in general: Tetrazolium assays rely on reduction of a dye to a coloured formazan, in cell work by metabolically active cells.
A short description of data set [1]: Selectivity index, ratio of CC50 for cytotoxicity against human MT4 cells reduction in cell viability for 5 days by MTT assay to EC50 for antiviral activity against wild type HIV-1 strain IIIB infected in human MT4 cells assessed as reduction in virus-induced cytopathogenicity by MTT assay. The data set is classed as toxicity, cell-based. Particulars: time 5 day, read-out: Selectivity Index.

A short description of data set [2]: Selectivity index, ratio of CC50 for cytotoxicity against human MT4 cells reduction in cell viability for 5 days by MTT assay to EC50 for antiviral activity against NNRTI-resistant HIV-1 RES056 harboring RT K103N/Y181C mutant infected in human MT4 cells assessed as protection against virus-induced cytopathogenicity after 5 days by MTT assay. Format: toxicity, cell-based. As to conditions: time 5 day, read-out: Selectivity Index.

Data set [3] concerns Human immunodeficiency virus 2. The data set can be described thus: Antiviral activity against HIV-2 ROD infected in human MT4 cells assessed as protection against virus-induced cytopathogenicity after 5 days by MTT assay. As to conditions: Human immunodeficiency virus 2, ROD, MT4, 120 h. For orientation: Protection from cytopathic effect is a common read-out in antiviral testing.

The term CC50 denotes the concentration that lowers cell viability or growth by half. For the compound `Cc1cc(C#N)cc(C)c1Oc1nc(NC2CCN(Cc3ccc(S(N)(=O)=O)cc3)CC2)ncc1-c1cccs1`, the CC50 with MT4 came out at 53.8 µM. Also, the figures for the selectivity ratio at 120 h in data set [1] and in data set [2] were 11800 and 520, respectively.

Regarding `COc1cc(-c2cnc(NC3CCN(Cc4ccc(S(C)(=O)=O)cc4)CC3)nc2Oc2c(C)cc(/C=C/C#N)cc2C)ccn1`, in the data set on MT4, the CC50 turned out to be 2.1 µM. Further, the selectivity ratio at 120 h in data set [1] was found to be 533; in data set [2], 70.

Regarding `Cc1cc(C#N)cc(C)c1Oc1nc(NC2CCN(Cc3ccc(C(N)=O)cc3)CC2)ncc1-c1ccccc1`, the CC50 in the data set with MT4 was no less than 13.4 µM.

For `Cc1cc(/C=C/C#N)cc(C)c1Oc1nc(NC2CCN(Cc3ccc(S(N)(=O)=O)cc3)CC2)ncc1-c1cccnc1`, the CC50 with MT4 was determined as 20.4 µM. Moreover, the figures for the selectivity ratio at 120 h in data set [1] and in data set [2] were 4060 and 793, respectively.

With `Cc1cc(-c2cnc(NC3CCN(Cc4ccc(C(N)=O)cc4)CC3)nc2Oc2c(C)cc(/C=C/C#N)cc2C)ccn1`, in the data set on MT4, the CC50 came to 6.51 µM. Besides, the selectivity ratio at 120 h in data set [1] stood at 1840; in data set [2], 358.

For the compound `Cc1cc(C#N)cc(C)c1Oc1nc(NC2CCN(Cc3ccc(S(N)(=O)=O)cc3)CC2)ncc1-c1ccsc1`, in the data set on MT4, the CC50 amounted to 6.13 µM. Moreover, the values for the selectivity ratio at 120 h in data set [1] and in data set [2] were 1020 and 29, respectively.

On to `Cc1cc(-c2cnc(NC3CCN(Cc4ccc(S(N)(=O)=O)cc4)CC3)nc2Oc2c(C)cc(/C=C/C#N)cc2C)ccn1`, for which the CC50 in the data set with MT4 turned out to be 4.37 µM. The selectivity ratio at 120 h in data set [1] came out at 1100; in data set [2] it was 190.

As to `Cc1cc(/C=C/C#N)cc(C)c1Oc1nc(NC2CCN(Cc3ccc(S(C)(=O)=O)cc3)CC2)ncc1-c1ccnc(F)c1`, the cytotoxic concentration (CC50) in the data set on MT4 came to 5.03 µM. Further, the figures for the selectivity ratio at 120 h in data set [1] and in data set [2] were 1060 and 200, respectively.

With `Cc1cc(/C=C/C#N)cc(C)c1Oc1nc(NC2CCN(Cc3ccc(S(C)(=O)=O)cc3)CC2)ncc1-c1ccnc(Br)c1`, the CC50 with MT4 is 3.21 µM. The selectivity ratio at 120 h in data set [1] was determined as 711; in data set [2], 97.

`Cc1cc(C#N)cc(C)c1Oc1nc(Nc2ccc(C#N)cc2)nc(N)c1Br` [ETRAVIRINE]: the CC50 with MT4 is greater than 4.59 µM.

For `Cc1cc(/C=C/C#N)cc(C)c1Oc1nc(NC2CCN(Cc3ccc(S(C)(=O)=O)cc3)CC2)ncc1-c1ccnc(Cl)c1`, the CC50 in the data set on MT4 is 2.04 µM. Further, the selectivity ratio at 120 h in data set [1] was found to be 482; in data set [2] it was 61.

For `Cc1cc(/C=C/C#N)cc(C)c1Oc1nc(NC2CCN(Cc3ccc(C(N)=O)cc3)CC2)ncc1-c1ccnc(Br)c1`, the CC50 with MT4 was 9.45 µM. Further, the results for the selectivity ratio at 120 h in data set [1] and in data set [2] were 1350 and 293, respectively.

As to `Cc1cc(/C=C/C#N)cc(C)c1Oc1nc(NC2CCN(Cc3ccc(C(N)=O)cc3)CC2)ncc1-c1ccnc(Cl)c1`, the CC50 with MT4 worked out at 19.1 µM. For the same compound, the selectivity ratio at 120 h in data set [1] was determined as 4630; in data set [2], 243.

The pEC50 is the negative decadic logarithm of the EC50, by convention in mol/L. For the compound `Cc1cc(C#N)cc(C)c1Oc1nc(NC2CCN(Cc3ccc(S(N)(=O)=O)cc3)CC2)ncc1-c1ccco1`, the CC50 in the data set on MT4 is 11.2 µM. Moreover, the results for the selectivity ratio at 120 h in data set [1] and in data set [2] were 2540 and 51, respectively. Besides, the pEC50 in data set [3] was less than 4.95.

With `Cc1cc(C#N)cc(C)c1Oc1nc(NC2CCN(Cc3ccc(S(C)(=O)=O)cc3)CC2)ncc1-c1ccccc1`, in the data set with MT4, the CC50 turned out to be 12.1 µM. Moreover, the selectivity ratio at 120 h in data set [1] was determined as 2460; in data set [2] it was 21. The pEC50 in data set [3] was less than 4.92.

Regarding `COc1cc(-c2cnc(NC3CCN(Cc4ccc(S(N)(=O)=O)cc4)CC3)nc2Oc2c(C)cc(/C=C/C#N)cc2C)ccn1`, the CC50 with MT4 amounted to 5.5 µM. Moreover, the selectivity ratio at 120 h in data set [1] is 957; in data set [2] it was 160.

`Cc1cc(/C=C/C#N)cc(C)c1Oc1nc(NC2CCN(Cc3ccc(S(C)(=O)=O)cc3)CC2)ncc1-c1ccncc1`: the CC50 in the data set on MT4 was 7.2 µM. For the same compound, the selectivity ratio at 120 h turned out to be 1260 in data set [1] and 273 in data set [2].

As for `COc1cc(-c2cnc(NC3CCN(Cc4ccc(C(N)=O)cc4)CC3)nc2Oc2c(C)cc(/C=C/C#N)cc2C)ccn1`, the cytotoxic concentration (CC50) in the data set on MT4 was determined as 6.27 µM. Moreover, the selectivity ratio at 120 h in data set [1] is 861; in data set [2], 156.

As for `Cc1cc(/C=C/C#N)cc(C)c1Oc1nc(NC2CCN(Cc3ccc(C(N)=O)cc3)CC2)ncc1-c1ccnc(F)c1`, the CC50 in the data set on MT4 amounted to 15.5 µM. Further, the selectivity ratio at 120 h in data set [1] turned out to be 1880; in data set [2], 290.

As for `Cc1cc(/C=C/C#N)cc(C)c1Oc1nc(NC2CCN(Cc3ccc(S(C)(=O)=O)cc3)CC2)ncc1-c1ccc(N)nc1`, the CC50 in the data set with MT4 was 2.36 µM. The selectivity ratio at 120 h in data set [1] amounted to 447; in data set [2] it was 90.

Consider `Cc1cc(C#N)cc(C)c1Oc1nc(NC2CCN(Cc3ccc(S(C)(=O)=O)cc3)CC2)ncc1-c1cccs1`, for which the CC50 with MT4 is 8.38 µM. The values for the selectivity ratio at 120 h in data set [1] and in data set [2] were 2090 and 62, respectively. Moreover, in data set [3], the pEC50 was less than 5.08.

As to `Cc1cc(/C=C/C#N)cc(C)c1Oc1nc(NC2CCN(Cc3ccc(S(N)(=O)=O)cc3)CC2)ncc1-c1ccnc(Br)c1`, in the data set with MT4, the CC50 worked out at 6.6 µM. The selectivity ratio at 120 h in data set [1] is 1490; in data set [2], 246.

As to `Cc1cc(C#N)cc(C)c1Oc1nc(NC2CCN(Cc3ccc(C(N)=O)cc3)CC2)ncc1-c1ccsc1`, the CC50 with MT4 is 37.3 µM. In addition, the selectivity ratio at 120 h came to 8840 in data set [1] and 90 in data set [2]. The pEC50 in data set [3] is less than 4.43.

Take `Cc1cc(/C=C/C#N)cc(C)c1Oc1nc(NC2CCN(Cc3ccc(C(N)=O)cc3)CC2)ncc1-c1ccc(F)nc1`: the CC50 in the data set on MT4 was determined as 20.9 µM. Besides, the selectivity ratio at 120 h came to 4590 in data set [1] and 1020 in data set [2].

As to `Cc1cc(/C=C/C#N)cc(C)c1Oc1nc(NC2CCN(Cc3ccc(C(N)=O)cc3)CC2)ncc1-c1ccc(N)nc1`, in the data set with MT4, the CC50 stood at 12.8 µM. In addition, the selectivity ratio at 120 h amounted to 1960 in data set [1] and 424 in data set [2].

`Cc1cc(C#N)cc(C)c1Oc1nc(NC2CCN(Cc3ccc(S(C)(=O)=O)cc3)CC2)ncc1-c1ccncc1`: in the data set on MT4, the CC50 was 17.2 µM. The figures for the selectivity ratio at 120 h in data set [1] and in data set [2] were 2900 and 70, respectively. Moreover, in data set [3], the pEC50 was less than 4.77.

As for `Cc1cc(/C=C/C#N)cc(C)c1Oc1nc(NC2CCN(Cc3ccc(S(N)(=O)=O)cc3)CC2)ncc1-c1ccc(F)nc1`, in the data set on MT4, the CC50 came to 17.1 µM. The results for the selectivity ratio at 120 h in data set [1] and in data set [2] were 2960 and 607, respectively.

Consider `Cc1cc(/C=C/C#N)cc(C)c1Oc1nc(NC2CCN(Cc3ccc(S(C)(=O)=O)cc3)CC2)ncc1-c1ccc(F)nc1`, for which, in the data set with MT4, the CC50 is 6.05 µM. For the same compound, the selectivity ratio at 120 h in data set [1] was 1000; in data set [2], 237.

Regarding `Cc1cc(C#N)cc(C)c1Oc1nc(NC2CCN(Cc3ccc(S(C)(=O)=O)cc3)CC2)ncc1-c1ccco1`, in the data set with MT4, the CC50 was determined as 7.45 µM. For the same compound, the selectivity ratio at 120 h came to 1650 in data set [1] and 32 in data set [2].

`Cc1cc(C#N)cc(C)c1Oc1nc(NC2CCN(Cc3ccc(S(C)(=O)=O)cc3)CC2)ncc1-c1ccoc1`: the CC50 in the data set on MT4 was determined as 55.8 µM. In addition, the selectivity ratio at 120 h in data set [1] turned out to be 11700; in data set [2], 323. The pEC50 in data set [3] was less than 4.25.

Turning to `Cc1cc(C#N)cc(C)c1Oc1nc(NC2CCN(Cc3ccc(C(N)=O)cc3)CC2)ncc1-c1ccco1`, the CC50 in the data set on MT4 came out at 7.35 µM. Further, the selectivity ratio at 120 h in data set [1] was 1270; in data set [2], 29. Besides, the pEC50 in data set [3] was less than 5.13.

As to `Cc1cc(/C=C/C#N)cc(C)c1Oc1nc(NC2CCN(Cc3ccc(S(N)(=O)=O)cc3)CC2)ncc1-c1ccnc(Cl)c1`, the CC50 with MT4 is 3.89 µM. For the same compound, the figures for the selectivity ratio at 120 h in data set [1] and in data set [2] were 904 and 185, respectively.

On to `Cc1cc(C#N)cc(C)c1Oc1nc(NC2CCN(Cc3ccc(S(N)(=O)=O)cc3)CC2)ncc1-c1ccncc1`, for which, in the data set on MT4, the CC50 was 5.67 µM. Besides, the selectivity ratio at 120 h turned out to be 2190 in data set [1] and 51 in data set [2]. The pEC50 in data set [3] was less than 5.25.

Regarding `Cc1cc(/C=C/C#N)cc(C)c1Oc1nc(NC2CCN(Cc3ccc(C(N)=O)cc3)CC2)ncc1-c1cccnc1`, the CC50 in the data set on MT4 is 25.3 µM. For the same compound, the selectivity ratio at 120 h in data set [1] was 5300; in data set [2] it was 1090.

Turning to `Cc1cc(-c2cnc(NC3CCN(Cc4ccc(S(C)(=O)=O)cc4)CC3)nc2Oc2c(C)cc(/C=C/C#N)cc2C)ccn1`, in the data set on MT4, the CC50 was determined as 5.34 µM. The selectivity ratio at 120 h in data set [1] came to 1170; in data set [2] it was 169.

On to `Cc1cc(C#N)cc(C)c1Oc1nc(NC2CCN(Cc3ccc(C(N)=O)cc3)CC2)ncc1-c1cccs1`, for which, in the data set with MT4, the CC50 came out at 9.26 µM. The figures for the selectivity ratio at 120 h in data set [1] and in data set [2] were 2770 and 80, respectively. For the same compound, the pEC50 in data set [3] was less than 5.03.

For the compound `Cc1cc(/C=C/C#N)cc(C)c1Oc1nc(NC2CCN(Cc3ccc(S(N)(=O)=O)cc3)CC2)ncc1-c1ccnc(F)c1`, in the data set on MT4, the CC50 came to 8.46 µM. Moreover, the selectivity ratio at 120 h stood at 1330 in data set [1] and 218 in data set [2].

`Cc1cc(/C=C/C#N)cc(C)c1Oc1nc(NC2CCN(Cc3ccc(S(C)(=O)=O)cc3)CC2)ncc1-c1cccnc1`: in the data set on MT4, the CC50 came to 23.5 µM. For the same compound, the results for the selectivity ratio at 120 h in data set [1] and in data set [2] were 5150 and 1050, respectively.

Take `Cc1cc(C#N)cc(C)c1Oc1nc(NC2CCN(Cc3ccc(C(N)=O)cc3)CC2)ncc1-c1ccoc1`: in the data set on MT4, the CC50 came out at 181 µM. In addition, the figures for the selectivity ratio at 120 h in data set [1] and in data set [2] were 53600 and 1680, respectively.
